Tested on: T4 lymphocytes (CEM cell line)
Test: NCI anti-HIV screen, toxicity control in uninfected cells
Format: cell-based
Conditions: Table XI

Bis-distamycin [Compound 16]
IC50: > 100 µM

From patent US5616606A, “Oligopeptide antiretroviral agents” (priority 1995, dated 1997)
